Experimental findings from US20250382355A1 (Merck Sharp & Dohme, published 2025) are described below.

As usually defined, the EC50 is the concentration giving half of the maximal effect. Read a high EC50 as lower potency in that assay.

Common to all, as to assay: ELISA
For orientation: An ELISA detects its analyte on a solid surface through an enzyme-linked reagent.

The target in assay [1] is T1, SARS-CoV-2 spike protein, Gamma P.1 variant (Acro Biosystems SPN-C52Hg) (SARS-CoV-2).
T1 construct: bought

In assay [2] the target is T2, SARS-CoV-2 spike protein, Beta B.1.351 variant (Acro Biosystems SPN-C52Hk) (SARS-CoV-2).
T2 construct: bought

The target in assay [3] is T3, SARS-CoV-2 spike protein, Omicron BA1.1 (Acro Biosystems SPN-C52Hz) (SARS-CoV-2).
T3 construct: bought

Assay [4] concerns the target T4, SARS-CoV-2 spike protein, Delta B.1.617.2 variant (Acro Biosystems SPN-C52He) (SARS-CoV-2).
T4 construct: bought

The target in assay [5] is SARS-CoV-2 spike protein, Alpha B.1.1.7 variant (Acro Biosystems SPN-C52H6) (SARS-CoV-2).

B1: 10B8 VHH-Fc (Fc fusion)
chain: QVQLVESGGGLVQPGGSLRLSCAASGITLDYYAIAWFRQAPGKEREGVSCFCSSDGDIRYADSVKGRFTISRDNAKNTVYLQMNSLKPEDTAVYYCATERVYSSTWFFHRYSELDFGSWGRGTQVTVSS
With B1, the concentration for a half-maximal effect (EC50) in assay [1] was determined as 1.11 nM; in assay [2] it was 0.03 nM; in assay [3] it was 2.81 nM; in assay [4], 0.85 nM; in assay [5], 0.05 nM.
